The structures given here were assigned with low confidence; some may be wrong.
Target: Recombinant heterodimeric HCV NS3/NS4A protease (strain 1a) (Hepatitis C virus genotype 1a, UniProt P27958)
Test: Spectrophotometric assay for HCV protease inhibitory activity (chromogenic ester substrates)
Conditions: read-out: Ki* Range; Table 4: Carboxylic Acids
Excerpt: The present invention relates to novel HCV protease inhibitors. This utility can be manifested in their ability to inhibit the HCV NS2/NS4a serine protease.
Assay for HCV Protease Inhibitory Activity:
Spectrophotometric Assay: Spectrophotometric assay for the HCV serine protease can be performed on the inventive compounds by following the procedure described by R. Zhang et al, Analytical Biochemistry, 270 (1999) 268-275, the disclosure of which is incorporated herein by reference. The assay based on the proteolysis of chromogenic ester substrates is suitable for the continuous monitoring of HCV NS3 protease activity. […]
Materials: Chemical reagents for assay related buffers are obtained from Sigma Chemical Company (St. Louis, Mo.). […] A Spectramax Plus microtiter plate reader with monochrometer is obtained from Molecular Devices (Sunnyvale, Calif.).
Enzyme Preparation: Recombinant heterodimeric HCV NS3/NS4A protease (strain 1a) is prepared by using the procedures published previously (D. L. Sali et al, Biochemistry, 37 (1998) 3392-3401). Protein concentrations are determined by the Biorad dye method using recombinant HCV protease standards previously quantified by amino acid analysis. […]

The chains behind the UniProt entries cited, without tags or fusion partners. Residues count along the entry.
UniProt P27958, 1027-1657 limits assumed: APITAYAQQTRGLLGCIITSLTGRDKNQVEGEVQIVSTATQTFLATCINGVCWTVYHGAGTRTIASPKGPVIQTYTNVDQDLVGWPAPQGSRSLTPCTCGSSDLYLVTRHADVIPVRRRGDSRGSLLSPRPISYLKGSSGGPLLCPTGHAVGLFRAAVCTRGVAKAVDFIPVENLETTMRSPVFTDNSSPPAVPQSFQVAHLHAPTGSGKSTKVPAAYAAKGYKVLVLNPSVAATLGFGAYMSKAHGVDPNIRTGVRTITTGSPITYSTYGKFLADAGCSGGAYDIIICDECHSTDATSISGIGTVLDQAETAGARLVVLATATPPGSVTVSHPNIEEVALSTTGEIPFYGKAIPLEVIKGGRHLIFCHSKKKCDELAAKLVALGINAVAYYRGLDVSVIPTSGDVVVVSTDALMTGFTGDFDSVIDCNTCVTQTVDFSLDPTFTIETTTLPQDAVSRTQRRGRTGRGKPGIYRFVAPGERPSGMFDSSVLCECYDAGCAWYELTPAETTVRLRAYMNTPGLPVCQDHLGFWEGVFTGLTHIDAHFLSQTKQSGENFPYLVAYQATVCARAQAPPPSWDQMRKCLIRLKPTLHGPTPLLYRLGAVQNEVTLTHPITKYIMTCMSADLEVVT
UniProt P27958, 1658-1711 partner limits assumed: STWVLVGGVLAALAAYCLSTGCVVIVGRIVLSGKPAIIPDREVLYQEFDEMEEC

## CC(C)(C)[C@H](NC(=O)NC1(C(=O)O)CCCCC1)C(=O)N1C[C@H]2[C@@H]([C@H]1C(=O)NC(CC1CC1)C(=O)C(N)=O)C2(C)C (stereo partly shown)
  Ki: < 75 nM

Source: patent publication US7423058B2, “Inhibitors of hepatitis C virus NS3 protease” (Schering Corporation, priority 2004, dated 2008)
